Article PMC10083355
Construct, isoform or probe ends are uncertain for at least one entry.

Assays:
[1] = biological target: FleQ (Pseudomonas syringae pv. tomato DC3000) (UniProt Q884Y2); test: EMSA; details: 1 uM FleQ, no nucleotide; STAD: 25 mM Tris-acetate pH 8.0, 8 mM Mg-acetate, 10 mM KCl, 3.5% PEG-8000, 1 mM DTT, 10 ug/ml poly(dI-dC), 200 ug/ml BSA; 30 min at 4 C; recombinant protein; label: 5'-32P; probe letters rebuilt from the primers and the genome
[2] = biological target: FleQ (Pseudomonas syringae pv. tomato DC3000) (UniProt Q884Y2); test: DMS footprinting; details: no nucleotide, G-76, G-79, G-90 top protected, G-88, G-89 bottom hyperreactive; STAD: 25 mM Tris-acetate pH 8.0, 8 mM Mg-acetate, 10 mM KCl, 3.5% PEG-8000, 1 mM DTT, 10 ug/ml poly(dI-dC), 200 ug/ml BSA; 30 min at 4 C; recombinant protein; label: 5'-32P; probe letters rebuilt from the primers and the genome
[3] = biological target: FleQ (Pseudomonas syringae pv. tomato DC3000) (UniProt Q884Y2); test: DNase I footprinting; details: no nucleotide, about 100 bp protected; STAD: 25 mM Tris-acetate pH 8.0, 8 mM Mg-acetate, 10 mM KCl, 3.5% PEG-8000, 1 mM DTT, 10 ug/ml poly(dI-dC), 200 ug/ml …; 30 min at 4 C; recombinant protein; label: 5'-32P; probe letters rebuilt from the primers and the genome

Measured: binding result

TGGTTGCTCGATAGACGGCTGAGAGGTCGCGCGTTGCAGTGCAACAGACGGGGTGCTGGAAACGGAAGATTCCTGATAATCCAGGCTGTTGTCCGTCTCCAGATAACCGTCCGAGCTCGCGCCGAAACGTTGAAACAGATTGGCCACATCGTCAGCACGACTCATTCTGTACGACCTCAATTGGGGCCACCAGGCACAACCCCAGTGGAAAAGCATTAATACTAATGTGTAATGTCATTGTGACAGTGTCAATAAACCGATATATGGCGTCCACAATTTACCGATGAGCGGTAAATTACTCGTTTTTCGACATTTTATTGGCGCTACAAAATTGTAGATCTGGAGACAATCGGGGGCAAACGGGGCTGATTCGAGGGTTTTACGCACTTGCGGCTATATATCCTATGGATCGGATATATAGCCGCTCAAGGGGAGGATCGAATTAAATCAGTGGCTGG (double strand) [wssA1-2 (PwssA promoter fragment)]
binds: all assays above
